Measurements taken from patent US20190167593A1, “CYCLOHEXENE DERIVATIVE OR PHARMACEUTICALLY ACCEPTABLE SALT THEREOF, AND APPLICATION OF SAME” (priority 2016, published 2019).

Sequences of proteins named here, by UniProt entry; tags and fusion partners are left off.
UniProt P03468, whole entry, looked up: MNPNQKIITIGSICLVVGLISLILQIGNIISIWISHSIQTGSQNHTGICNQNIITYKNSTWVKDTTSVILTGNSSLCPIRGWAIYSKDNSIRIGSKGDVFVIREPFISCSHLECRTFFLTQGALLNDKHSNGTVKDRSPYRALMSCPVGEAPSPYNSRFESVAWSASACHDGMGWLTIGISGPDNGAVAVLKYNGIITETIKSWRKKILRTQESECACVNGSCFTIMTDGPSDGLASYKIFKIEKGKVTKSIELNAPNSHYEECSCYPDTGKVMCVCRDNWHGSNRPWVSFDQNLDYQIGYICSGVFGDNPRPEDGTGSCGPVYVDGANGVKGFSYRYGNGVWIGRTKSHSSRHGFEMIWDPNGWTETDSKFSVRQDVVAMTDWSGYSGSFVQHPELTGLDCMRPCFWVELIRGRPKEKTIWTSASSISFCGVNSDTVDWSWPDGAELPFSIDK

Target: influenza virus neuraminidase (NA), wild-type (Influenza A virus, UniProt P03468)
Format: biochemical
Settings: read-out: WIDE-TYPE IC50

Work on Peramivir yielded an IC50 of 0.0984 nM.
